In patent publication US20180256673A1, “METHODS FOR TREATING FUNGAL INFECTIONS” (priority 2015, published 2018):

Tested on: C. glabrata ATCC 90030, ATCC 2001
Assay: microbe, parasite or virus in culture
Assay type: cell-based, Candida glabrata
Conditions: Nakaseomyces glabratus

## CCCCCOc1ccc(-c2ccc(-c3ccc(C(=O)N[C@H]4C[C@@H](O)[C@@H](OCC[N+](C)(C)C)NC(=O)[C@@H]5[C@@H](O)[C@@H](C)CN5C(=O)[C@H]([C@@H](C)O)NC(=O)[C@H]([C@H](O)[C@@H](O)c5ccc(O)cc5)NC(=O)[C@@H]5C[C@@H](O)CN5C(=O)[C@H]([C@@H](C)O)NC4=O)cc3)cc2)cc1 [Compound 1]
48 h, ATCC 90030 P20-1, selecting drug CAS, Fks2 HS1 F659I D666Y, 48 h read
  MIC: 8 µg/mL
ATCC 2001 P20-2, selecting drug ANID, Fks1 HS1 D632Y
  MIC: 2 µg/mL
